Here are results for two molecules from PMC12073785, “Design, Synthesis and Biological Evaluation of 3-Hydrazonoindolin-2-one Derivatives as Novel HIV-1 RNase H Inhibitors” (Molecules, 2025).

The subject of this data set is HIV-1 (strain IIIB). Description: Anti-HIV-1 (strain IIIB) activity in MT-4 cells, MTT assay. It counts as cell-based. The following applies: ratio CC50/EC50, MT-4 cells. The procedure: The anti-HIV-1 (strain IIIB) activity evaluation in MT-4 cells was conducted using an optimized MTT assay. The cell lines were obtained from the laboratory (Prof. Erik De Clercq, Rega Institute for Medical Research, KU Leuven, Herestraat 49, Leuven, Belgium). Compounds were serially diluted (5-fold increments, starting from 10× concentration) and dispensed into 96-well plates (25 µL/well) via an automated Biomek 3000 workstation (Beckman Instruments, Fullerton, CA, USA). Parallel experimental groups included virus-infected (50 µL HIV inoculum, 100–300 TCID50) and mock-infected controls (50 µL culture medium). MT-4 cells were centrifuged (220× g, 5 min), resuspended to 6 × 10⁵ cells/mL, and seeded (50 µL/well). After a 5-day incubation, cell viability was quantified by measuring mitochondrial dehydrogenase-mediated MTT-to-formazan conversion using dual-wavelength spectrophotometry (540 nm primary, 690 nm reference). The 50% cytotoxic concentration (CC50) was calculated from triplicate median absorbance values, representing the compound concentration reducing mock-infected cell viability by 50%.
For orientation: Formazan colour is commonly taken as a measure of viable cells.

For `O=C1Nc2ccc(Cl)cc2[C@@](C#CC2CC2)(C(F)(F)F)O1` [EFV, reference compound], the “SI, selectivity index” value is recorded as >1538.
The figure for `Cc1ccnc2c1NC(=O)c1cccnc1N2C1CC1` [NVP, reference compound] is >80.
